From publication PMC12337344 come the findings set out here.

For at least one entry, the source does not settle the construct or the ends of the probe.

This series deals with G2L4 RT (Pseudomonas aeruginosa AZPAE12409). Put plainly: X-ray crystallography (2.77 Å). The following applies: 20 mM MgCl2, 1 mM MnCl2, 2 mM dCTP, ddGTP, incoming dCTP bound at the active site, protein:DNA 1:1.2; extended in the crystal at the 3' end by C, C and ddG (3'-terminal dideoxyguanosine); Co-crystallization at 25 C, protein:DNA 1:1.2, with 20 mM MgCl2, 1 mM MnCl2, 2 mM dCTP and ddGTP; protein in crystallization buffer; recombinant protein; protein details: MBP tag removed for crystallization; folded or branched DNA.

Regarding AAGCGGTTAACCCAA [15-nt snapback DNA], the binding result is given as “binds”.
